Anti-infective test results gathered from many reports (values: NIAID ChemDB through PubChem).

All rows: growth or infection tests; organism: Herpes simplex virus 2; read by: plaque count; read-out: EC50

An empty or dashed field is not shown.

structure	cell line	strain	result
Cc1cn([C@@H]2O[C@H](CO)[C@H]2CO)c(=O)[nH]c1=O	HFF	MS	5.7 µg/mL
Cn1cc(C(=O)NCc2ccc(Cl)cc2)c(=O)c2cc(CN3CCOCC3)ccc21	VERO	MS	2.5 µM
CC(C)OC1[C@H](n2ccc(=O)[nH]c2=O)O[C@H](COS(=O)(=O)NC(=O)NC[C@H]2O[C@H](COCc3ccccc3)[C@@H](OCc3ccccc3)[C@H](OCc3ccccc3)[C@H]2OCc2ccccc2)[C@H]1OC(C)C	VERO	Lovelace	45 µg/mL
Nc1nc2c(ncn2CC(CO)OCP(=O)(O)O)c(=O)[nH]1	WI-38	Curtis	1 µM
Nc1nc2c(ncn2COCCO)c(=O)[nH]1	HELF	MS	0.11 µg/mL
Nc1nc2c(ncn2CCC(COC=O)COC=O)c(=O)[nH]1	VERO	MS	10 µM
CC(=O)NC(CCc1ccc(Cl)c(Cl)c1)c1cccc(O)c(=O)c1	VERO	Clinical isolate	1.07 µM
CCCCCCCCCCCCCCCCOP(=O)(O)CO[C@H](CO)Cn1ccc(N)nc1=O	HFF	SR	0.5 µM
Nc1nc2c(ncn2CCC(O)CO)c(=O)[nH]1	VERO	91075	12 µM
O=C(NCc1ccc(Cl)cc1)c1cn2c3c(cc(CN4CCOCC4)cc3c1=O)OC(c1cccnc1)C2	HFF	12247 (ACV-resistant)	8 µM
O=C(O)P(=O)(O)O	VERO	G-FAU-C2	26 µM
CC(=O)OC[C@H]1O[C@H](OC(=O)NS(=O)(=O)OC[C@H]2O[C@@H](n3ccc(=O)[nH]c3=O)[C@H](OC(C)C)[C@@H]2OC(C)C)[C@@H](OC(C)=O)[C@@H](OC(C)=O)[C@@H]1OC(C)=O	VERO	Lovelace	>100 µg/mL
COC(=O)[C@H](C)NP(=O)(OCC1C/C1=C/n1cnc2c(NC3CC3)nc(N)nc21)Oc1ccccc1	HFF	-	0.8 µM
O=c1[nH]c(=O)n([C@H]2C[C@H](O)[C@@H](COP3(=O)OCc4c(ccc5ccccc45)O3)O2)cc1/C=C/Br	VERO	G (TK+)	>128 µg/mL
CC(C)O[C@@H]1[C@H](OC(C)C)[C@@H](COS(=O)(=O)NC(=O)O[C@H]2O[C@H](COC(=O)c3ccccc3)[C@H](OC(=O)c3ccccc3)[C@H](OC(=O)c3ccccc3)[C@H]2OC(=O)c2ccccc2)O[C@H]1n1ccc(=O)[nH]c1=O	VERO	Lovelace	35 µg/mL
Nc1ncnc2c1ncn2C=C1CC1CO	HFF	-	47.9 µM
Cc1cn([C@@H]2O[C@H](CO)[C@@H](O)[C@@H]2F)c(=O)[nH]c1=O	HELF	UW-268	0.004 µg/mL
CC(C)=CCCC(CO)C1CCC2C3CC=C4C[C@H](O)[C@@H](O)CC4(C)C3CCC12C	VERO	TYPE G	17.5 µg/mL
Nc1ccn([C@@H]2O[C@H](CO)[C@@H](O)[C@H]2O)c(=S)n1	MRC-5	G	>386 µM
COC(=O)[C@H](C)NP(=O)(OC[C@H]1C/C1=C/n1cnc2c(N)nc(N)nc21)Oc1ccccc1	HFF	-	12.7 µM
COC(=O)[C@]1(C)CCC[C@]2(C)c3cc(Br)c4nc(C)[nH]c4c3CCC12	E6SM	-	>4 µg/mL
O=c1[nH]c(=O)n([C@H]2C[C@H](O)[C@@H](COP3(=O)OCc4ccc5ccccc5c4O3)O2)cc1/C=C/Br	VERO	G (TK+)	>128 µg/mL
O=C(NCCc1ccccc1)C1=Cc2ccncc2CC1	HFF	E194	292 µM
O=c1[nH]c(=O)n([C@@H]2O[C@H](CO)[C@@H](O)[C@@H]2O)cc1/C=C/Cl	HELF	HG-52	26.6 µg/mL
CC(C)O[C@@H]1[C@H](OC(C)C)[C@@H](COS(=O)(=O)NC(=O)O[C@H]2C[C@@H](OC(=O)c3ccccc3)[C@H](OC(=O)c3ccccc3)[C@@H](COC(=O)c3ccccc3)O2)O[C@H]1n1ccc(=O)[nH]c1=O	VERO	Lovelace	50 µg/mL
O[C@@H]1[C@H](O)[C@H](O)CO[C@H]1n1c(Br)nc2cc(Cl)c(Cl)cc21	HFF	-	>50 µM
COC(=O)[C@]1(C)CCC[C@]2(C)c3ccc4[nH]c(C(F)(F)F)nc4c3CCC12	E6SM	-	>4 µg/mL
O=c1ccn([C@@H]2O[C@H](CO)[C@@H](O)[C@@H]2F)c(=O)[nH]1	VERO	G	0.02 µM
CC(C)CCCC(COS(=O)(=O)O)C1CCC2C3CC=C4C[C@H](O)[C@@H](OS(=O)(=O)O)CC4(C)C3CCC12C	VERO	TYPE G	18.4 µg/mL
CC(C)O[C@@H]1[C@H](OC(C)C)[C@@H](COS(=O)(=O)NC(=O)O[C@H]2O[C@H](COCc3ccccc3)[C@H](OCc3ccccc3)[C@H](OCc3ccccc3)[C@H]2OCc2ccccc2)O[C@H]1n1ccc(=O)[nH]c1=O	VERO	Lovelace	50 µg/mL
Nc1nc2c(ncn2CC[C@@H](O)CO)c(=O)[nH]1	BHK	91075	11 µM
Nc1ccn(C[C@@H](CO)OCP(=O)(O)O)c(=O)n1	HFF	SR	6.5 µM
CC(C)O[C@@H]1[C@H](OC(C)C)[C@@H](COS(=O)(=O)NC(=O)O[C@H]2O[C@H](COC(=O)c3ccccc3)[C@@H](OC(=O)c3ccccc3)[C@H](OC(=O)c3ccccc3)[C@@H]2OC(=O)c2ccccc2)O[C@H]1n1ccc(=O)[nH]c1=O	VERO	Lovelace	>100 µg/mL
CC(C)=CCCC(COS(=O)(=O)O)C1CCC2C3CC=C4C[C@H](O)[C@@H](OS(=O)(=O)O)CC4(C)C3CCC12C	VERO	TYPE G	51.5 µg/mL
Cc1cn([C@@H]2O[C@H](CO)[C@@H](O)[C@@H]2F)c(=O)[nH]c1=O	VERO	G-FIAC-C1	11 µM
CC(C)O[C@@H]1[C@H](OC(C)C)[C@@H](COS(=O)(=O)NC(=O)O[C@@H]2C[C@@H](OC(=O)c3ccccc3)[C@H](OC(=O)c3ccccc3)[C@@H](COC(=O)c3ccccc3)O2)O[C@H]1n1ccc(=O)[nH]c1=O	VERO	Lovelace	66 µg/mL
Nc1nc(=O)n([C@@H]2O[C@H](CO)[C@@H](O)[C@@H]2F)cc1I	VERO	G-FIAC-C1	21 µM
Fc1cccn2cc(-c3ccccc3)cc12	VERO	186	>100 µM
Nc1nc2c(ncn2COCCO)c(=O)[nH]1	VERO	91075 (acyclovir-resistant)	65 µM
O=[N+]([O-])c1cccc(-c2cc3ccccn3c2)c1	VERO	186	>100 µM
CCCCCCCCCCCCCCCC(=O)OCC(CO)CCn1cnc2c(=O)[nH]c(N)nc21	VERO	MS	128 µM
CCCCCCCCCCCCCCCCCCOCCCOP1(=O)CO[C@@H](Cn2ccc(N)nc2=O)CO1	HFF	SR	>1 µM
COc1ccccc1CNC(=O)C1=Cc2ccncc2CC1	HFF	E194	42.4 µM
Cn1cc(C(=O)NCc2ccc(Cl)cc2)c(=O)c2cc(/C=C\CO)cc(F)c21	VERO	-	2 µM
Nc1nc2c(ncn2CC[C@H](O)CO)c(=O)[nH]1	VERO	91075 (acyclovir-resistant)	>250 µM
CC(C)OC1[C@H](n2ccc(=O)[nH]c2=O)O[C@H](COS(=O)(=O)NC(=O)N[C@@H]2O[C@H](COC(=O)c3ccccc3)[C@@H](OC(=O)c3ccccc3)[C@H](OC(=O)c3ccccc3)[C@H]2OC(=O)c2ccccc2)[C@H]1OC(C)C	VERO	Lovelace	50 µg/mL
C[C@@H](c1ccccc1)N(CC(=O)Nc1ccc(-c2csc(N)n2)cc1)C(=O)c1ccncc1	BHK-21/C13	VK-1	0.09 µM
O=c1[nH]c(=O)n([C@H]2C[C@H](O)[C@@H](COP3(=O)OCc4cccc(-c5ccccc5)c4O3)O2)cc1/C=C/Br	VERO	G (TK+)	>128 µg/mL
CCCCCCCCCCCCCCCCCCOC[C@H](COP(=O)(O)CO[C@H](CO)Cn1ccc(N)nc1=O)OCc1ccccc1	HFF	SR	0.09 µM
Nc1nc(=S)n([C@@H]2O[C@H](CO)[C@@H](O)[C@@H]2O)cc1I	MRC-5	G	26 µM
[O-][n+]1onc2ncnc(N3CC[N+]4(CC3)CC[N+]3(CCN(c5ncnc6no[n+]([O-])c56)CC3)CC4)c21	GMK	US	20.4 µM
CC(C)Nc1nc2cc(Cl)c(Cl)cc2n1[C@H]1O[C@@H](CO)[C@H](O)[C@@H]1O	HFF	-	>53 µM
O=c1ccn(N2C[C@H](CO)[C@H]2CO)c(=O)[nH]1	VERO	-	>10 µg/mL
Nc1nc(=S)n([C@@H]2O[C@H](CO)[C@@H](O)[C@@H]2O)cc1F	MRC-5	G	>361 µM
Cc1cc(C2CCCCC2)n(O)c(=O)c1	HFF	Clinical isolate	1 µM
Nc1nc2c(ncn2CCC(CO)CO)c(=O)[nH]1	MRC-5	6 isolates	1.5 µg/mL
O=C(O)CP(=O)(O)O	MEF	X-79	15.6 µg/mL
COC(=O)[C@]1(C)CCC[C@]2(C)c3cc(Br)c4[nH]ccc4c3CCC12	E6SM	-	>4 µg/mL
Nc1nc(=O)n([C@@H]2O[C@H](CO)[C@@H](O)[C@@H]2F)cc1I	HELF	MS	0.019 µg/mL
O=c1[nH]c(=O)n([C@@H]2O[C@H](CO)[C@@H](O)[C@@H]2F)cc1I	VERO	G-FAC-C1	17 µM
Nc1nc(=O)n([C@@H]2O[C@H](CO)[C@@H](O)[C@@H]2F)cc1I	VERO	MS	1.3 µM
COCc1cn([C@H]2C[C@H](O)[C@@H](CO)O2)c(=O)nc1N	VERO	MS	228 µM
Cn1cc(C(=O)NCc2ccc(Cl)cc2)c(=O)c2cc(CN3CCOCC3)ccc21	HFF	L6191429 ACV resistant	2.3 µM
O=C(NCc1ccc(Cl)cc1)c1c[nH]c2ccc(C#CCO)cc2c1=O	-	3 isolates	16 µM
C=C(C)[C@@H]1CCc2c(O)c(O)c(=O)cc(C)c2C1	HFF	Clinical isolate	0.55 µM
CCCCCCOC(=O)c1ccc2cc(-c3ccccc3)cn2c1	VERO	186	>100 µM
Nc1nc2c(ncn2CCCC(CO)CO)c(=O)[nH]1	BHK	91075	3 µM
COc1ccc2nc3n[nH]c(C)c3c(Cl)c2c1	VERO	-	1.8 µg/mL
CCCCCCCCCCCCCCCC(=O)OC[C@H]1O[C@H](OC(=O)NS(=O)(=O)OC[C@H]2O[C@@H](n3ccc(=O)[nH]c3=O)[C@H](OC(C)C)[C@@H]2OC(C)C)[C@H](OC(=O)CCCCCCCCCCCCCCC)[C@@H](OC(=O)CCCCCCCCCCCCCCC)[C@@H]1OC(=O)CCCCCCCCCCCCCCC	VERO	Lovelace	>100 µg/mL
CCCCCCCC/C=C\CCCCCCCCOCCOP(=O)(O)CO[C@H](CO)Cn1ccc(N)nc1=O	HFF	MS	0.005 µM

Repeating the final 5 entries:

structure	cell line	strain	result
CCCCCCOC(=O)c1ccc2cc(-c3ccccc3)cn2c1	VERO	186	>100 µM
Nc1nc2c(ncn2CCCC(CO)CO)c(=O)[nH]1	BHK	91075	3 µM
COc1ccc2nc3n[nH]c(C)c3c(Cl)c2c1	VERO	-	1.8 µg/mL
CCCCCCCCCCCCCCCC(=O)OC[C@H]1O[C@H](OC(=O)NS(=O)(=O)OC[C@H]2O[C@@H](n3ccc(=O)[nH]c3=O)[C@H](OC(C)C)[C@@H]2OC(C)C)[C@H](OC(=O)CCCCCCCCCCCCCCC)[C@@H](OC(=O)CCCCCCCCCCCCCCC)[C@@H]1OC(=O)CCCCCCCCCCCCCCC	VERO	Lovelace	>100 µg/mL
CCCCCCCC/C=C\CCCCCCCCOCCOP(=O)(O)CO[C@H](CO)Cn1ccc(N)nc1=O	HFF	MS	0.005 µM

ECn is the concentration giving n% inhibition of infection, replication or growth. Lines come from different laboratories, so protocols vary.